Data: US20230321186A1, “Mucin Glycans as Antifungal Agents” (Massachusetts Institute of Technology, priority 2022, published 2023)

Assay: Analysis of mucin O-glycan profiles by NSI-MS (relative abundance of released glycans)
Conditions: for % Total Profile: including peeling products; for pmol/mg of total released glycan: permethylated glycans, NSI-MS; for % Total Profile w/o Peeling: without peeling products (glycans 81-83)

Row | Compound | % Total Profile (MUC5AC preparation) [%] | pmol/mg of total released glycan (MUC5AC preparation) [pmol/mg] | % Total Profile w/o Peeling (MUC5AC preparation) [%] | % Total Profile (MUC5B preparation) [%] | pmol/mg of total released glycan (MUC5B preparation) [pmol/mg] | % Total Profile w/o Peeling (MUC5B preparation) [%]
1 | CCS[C@@H]1O[C@@H]2CO[C@H](c3ccccc3)O[C@@H]2[C@H](OCc2ccccc2)[C@H]1O [Compound 15] | 15.98 | 87.06 | 17.00 | 2.35 | 4.25 | 2.57
2 | CCS[C@@H]1O[C@@H]2CO[C@H](c3ccccc3)O[C@@H]2[C@H](OCc2ccccc2)[C@H]1OC(=O)c1ccccc1 [Compound 16] | 1.86 | 10.15 | 1.98 | 6.21 | 11.24 | 6.80
3 | COc1ccc([C@H]2OC[C@H]3O[C@H](OC)[C@H](NC(C)=O)[C@@H](O[C@@H]4O[C@@H]5CO[C@H](c6ccccc6)O[C@@H]5[C@H](OC(C)=O)[C@H]4OC(C)=O)[C@H]3O2)cc1 [Compound 21] | 3.83 | 20.85 | 4.07 | 2.20 | 3.99 | 2.41
4 | COC(=O)[C@@]1(O[C@@H]2[C@@H](O)[C@H](O[C@@H]3[C@@H](NC(C)=O)[C@@H](OC)O[C@@H]4CO[C@H](c5ccc(OC)cc5)O[C@H]34)O[C@@H]3CO[C@H](c4ccccc4)O[C@H]23)C[C@H](OC(C)=O)[C@@H](NC(C)=O)[C@H]([C@H](OC(C)=O)[C@@H](COC(C)=O)OC(C)=O)O1 [Compound 24] | 0.34 | 1.86 | 0.36 | 1.65 | 2.98 | 1.81
5 | CO[C@H]1O[C@H](CO)[C@H](O)[C@H](O[C@@H]2O[C@@H]3COC(c4ccccc4)O[C@@H]3[C@H](OCc3ccccc3)[C@H]2O[C@@H]2O[C@@H](C)[C@@H](OCc3ccccc3)[C@@H](OCc3ccccc3)[C@@H]2OCc2ccccc2)[C@H]1NC(C)=O (stereo partly drawn) [Compound 26] | 0.41 | 2.25 | 0.44 | – | – | –
6 | CCS[C@@H]1O[C@@H]2CO[C@@H](c3ccccc3)O[C@H]2[C@H](O)[C@H]1N1C(=O)c2ccccc2C1=O [Compound 28] | 0.31 | 1.72 | 0.34 | 1.34 | 2.42 | 1.46
7 | CCS[C@@H]1O[C@@H]2CO[C@@H](c3ccccc3)O[C@H]2[C@H](OCc2ccccc2)[C@H]1N1C(=O)c2ccccc2C1=O [Compound 29] | 0.90 | 4.93 | 0.96 | 1.82 | 3.30 | 2.00
8 | CO[C@H]1O[C@H](CO)[C@H](O)[C@H](O[C@@H]2O[C@H](CO)[C@H](O)[C@H](O[C@]3(C(=O)[O-])C[C@H](O)[C@@H](NC(C)=O)[C@H]([C@H](O)[C@H](O)CO)O3)[C@H]2O)[C@H]1NC(C)=O.[Na+] [Core 1+sialic acid, Methyl 3-O-(sodium 5-acetamido-3,5-dideoxy-D-glycero-α-D-galacto-2-nonulopyranosylonate)-β-D-galactopyranosyl-(1→3)-2-acetamido-2-deoxy-α-D-galactopyranoside] | 1.10 | 5.99 | 1.17 | 2.42 | 4.38 | 2.65
